Earlier results, collected in patent publication EP3645498B1, “PROCESS FOR RECOVERING ACETIC ACID FROM AN AQUEOUS STREAM COMPRISING THE SAME” (Nouryon Chemicals International B.V., priority 2017, dated 2019).

Details: 20°C

For `CCCCOP(=O)(OCCCC)OCCCC`, the Solubility in water is given as 6 g/L (20°C) ^[4].
